Construct, isoform or probe ends are uncertain for at least one entry. At least one verdict was read from the data and is not stated in words by the source. Where a protein sequence is shown, tags need not be part of it.
Molecular target: T1, PtxR (Pseudomonas aeruginosa PAO1) (UniProt P72131)
T1 sequence (looked up, limits assumed): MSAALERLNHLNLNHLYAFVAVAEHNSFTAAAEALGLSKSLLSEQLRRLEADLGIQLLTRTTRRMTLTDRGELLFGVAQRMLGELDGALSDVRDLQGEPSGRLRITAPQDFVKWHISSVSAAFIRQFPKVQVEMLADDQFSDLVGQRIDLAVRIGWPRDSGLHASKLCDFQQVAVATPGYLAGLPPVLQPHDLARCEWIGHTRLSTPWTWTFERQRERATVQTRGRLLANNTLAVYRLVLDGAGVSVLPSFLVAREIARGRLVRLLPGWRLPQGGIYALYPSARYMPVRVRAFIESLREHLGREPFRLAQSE
Experiment: DNase I footprinting
Settings: recombinant protein; protein details: C-terminal His6 (pET24b); label: 32P end label; probe letters rebuilt from the primers and the genome

Question: Does “CAACTGATCGTTCGCGGCTCGACCCATCCACGCGGCTAGCGGCCCGCCGCCGGCGCGTTGCCGGCGGCTTTCGCACGGCTTGAAATGAAACCGGTTTCAGAGGATCGCCAATGTCCCTTCACCCCGTCTCCATCAGTCTTTCCAGCTATGGCGCGGACCTCGTTCGCAGTCGCGGCCAGGCCAGCTTCCTGCCCTTGCTGGCGATGGCCGGCGCGCAGCGCGTGGAACTGCGCGAGGAACTCTTCGCCGGCCCGCCGGATACCGAGGCGCTGACCGCCGCCATCCAGTT (double strand) [Pkgu promoter fragment]” bind?
Answer: binds

From publication PMC3402500, “Genes for Carbon Metabolism and the ToxA Virulence Factor in Pseudomonas aeruginosa Are Regulated through Molecular Interactions of PtxR and PtxS” (PLoS ONE, 2012)
